# Test results taken from patent publication US7192981B2, “3,4-dihydroxyhydrocinnamic acid derivative” (Bionutrigen Co., Ltd., priority 2005, dated 2007).
# Tested on: isolated rat epididymal adipocytes
# Assay: Glucose transport assay (2-DOG uptake)
# Assay type: cell-based
# Conditions: PAO 1 μM added 10 min before DHH105 500 μM, 4 h
smiles,measurement,value
O=[As]c1ccccc1 (stereo not shown),effect on glucose transport induced by DHH105,completely abolished
